A mixed list of measured activities; the numbers were collected in NIAID ChemDB.

Shared fields: growth or infection tests; organism: Aspergillus niger

MIC50, MIC90 and the like: level of inhibition, or share of isolates inhibited. Neighbouring rows are from separate reports. An empty or dashed field is not shown.

| structure | strain or isolate | measure | read by | result |
|---|---|---|---|---|
| c1ccc(CO/N=C2/c3ccccc3OCC2n2cncn2)cc1 | ATCC 16401 | MFC | - | >64 µg/mL |
| Cc1ccc2nc(Cl)c(C3SC(=Cc4ccc(O)cc4)C(=O)N3n3c(-c4ccc(Cl)cc4)nc4ccccc4c3=O)cc2c1 | - | MIC99 | broth dilution / visual reading | 100 µg/mL |
| CC1CC(C)CN(c2nc3ccc4c(ccc(=O)n4C)c3s2)C1 | MTCC 282 | MIC100 | - | 62.5 µg/mL |
| Clc1ccc(CO/N=C2/c3ccc(Cl)cc3OCC2n2cnnc2)c(Cl)c1 | ATCC 16401 | MIC | - | >64 µg/mL |
| C=C1C(=O)O[C@H]2[C@H]1[C@@H](O)C[C@]1(C)[C@@H]2[C@@H](CO)CC[C@H]1O | ATCC 6275 | MFC | - | 0.5 µg/mL |
| C[C@H]1N(C(=O)c2ccc(C(F)(F)F)cc2)C[C@@H](O)O[C@@]1(Cn1cncn1)c1ccc(F)cc1F | Isolate 2 | MIC | - | 100 µg/mL |
| CC(=O)Nc1ccc(OCC(=O)N2N=C(c3nc4ccccc4[nH]3)CC2c2ccccc2C)cc1 | MTCC 282 | MIC100 | - | 500 µg/mL |
| Cc1cccc(-c2cc(-c3cc4cc(F)ccc4oc3=O)nc(NS(=O)(=O)c3ccccc3)c2C#N)c1 | MTCC 282 | MIC | turbidity | 500 µg/mL |
| CC(=O)Nc1ccc(OCC(=O)N2N=C(c3nc4ccccc4[nH]3)CC2c2ccccc2F)cc1 | MTCC 282 | MIC100 | - | 50 µg/mL |
| COc1ccc(CN2CCN(c3nc4ccc5oc(=O)ccc5c4s3)CC2)c(OC)c1OC | MTCC 282 | MIC100 | - | 62.5 µg/mL |
| N#Cc1c(-c2cccc(O)c2)cc(-c2cc3cc(F)ccc3oc2=O)nc1NS(=O)(=O)c1ccccc1 | MTCC 282 | MIC | turbidity | 100 µg/mL |
| C=C(C(=O)O[C@H]1C[C@]2(C)[C@H]([C@@H](CO)CC[C@H]2O)[C@H]2OC(=O)C(=C)[C@@H]21)C(O)CO | ATCC 6275 | MIC | - | 0.5 µg/mL |
| Cc1ccc2nc(Cl)c(C3SC(=Cc4cccc([N+](=O)[O-])c4)C(=O)N3n3c(-c4ccc(Cl)cc4)nc4ccccc4c3=O)cc2c1 | - | MIC99 | broth dilution / visual reading | 200 µg/mL |
| COc1ccc(CN2CCN(c3nc4ccc5c(ccc(=O)n5C)c4s3)CC2)c(OC)c1OC | MTCC 282 | MIC100 | - | 50 µg/mL |
| CC(=O)Nc1ccc(OCC(=O)N2N=C(c3nc4ccccc4[nH]3)CC2c2cccc(O)c2)cc1 | MTCC 282 | MIC100 | - | 500 µg/mL |
| N#Cc1c(-c2cccc(Cl)c2)cc(-c2cc3cc(F)ccc3oc2=O)nc1NS(=O)(=O)c1ccccc1 | MTCC 282 | MIC | turbidity | 1000 µg/mL |
| Clc1ccc(CO/N=C2\c3ccccc3OCC2n2cncn2)c(Cl)c1 | ATCC 16401 | MFC | - | 16 µg/mL |
| Cc1ccc2nc(Cl)c(C3SC(=Cc4cccc(O)c4)C(=O)N3n3c(-c4ccc(Cl)cc4)nc4ccccc4c3=O)cc2c1 | - | MIC99 | broth dilution / visual reading | 500 µg/mL |
| CC(C)N1CCN(c2nc3ccc4c(ccc(=O)n4C)c3s2)CC1 | MTCC 282 | MIC100 | - | 100 µg/mL |
| Brc1ccc(CO/N=C2\c3ccccc3OCC2n2cncn2)cc1 | ATCC 16401 | MIC | - | 16 µg/mL |
| C=C(C(=O)O[C@H]1C[C@]2(C)[C@H]([C@@H](CO)CC[C@H]2O)[C@H]2OC(=O)C(=C)[C@@H]21)C(O)COC(C)=O | ATCC 6275 | MIC | - | 0.5 µg/mL |
| O=c1ccc2c(ccc3nc(N4CCN(C(c5ccccc5)c5ccc(Cl)cc5)CC4)sc32)o1 | MTCC 282 | MIC100 | - | 62.5 µg/mL |
| CC(=O)Nc1ccc(OCC(=O)N2N=C(c3nc4ccccc4[nH]3)CC2c2ccc(F)cc2)cc1 | MTCC 282 | MIC100 | - | 25 µg/mL |
| COc1c(CN(C)C)cccc1C1OC(c2ccncc2)=NN1C(C)=Nc1cccc(F)c1 | MTCC 8189 | MIC | - | 3.12 µg/mL |
| C=C[C@]1(C)C[C@H](OC(=O)C(=C)C(O)COC(C)=O)[C@H]2C(=C)C(=O)O[C@@H]2[C@H]1C(=C)CO | ATCC 6275 | MIC | - | 0.5 µg/mL |
| CC(=O)Nc1ccc(OCC(=O)N2N=C(c3nc4ccccc4[nH]3)CC2c2ccc(Cl)cc2)cc1 | MTCC 282 | MIC100 | - | 50 µg/mL |
| Clc1ccc(CO/N=C2\c3ccccc3OCC2n2cncn2)cc1 | ATCC 16401 | MIC | - | 16 µg/mL |
| CCN1CCN(c2nc3ccc4c(ccc(=O)n4C)c3s2)CC1 | MTCC 282 | MIC100 | - | 250 µg/mL |
| Cc1ccc2nc(Cl)c(C3SC(=Cc4ccccc4O)C(=O)N3n3c(-c4ccc(Cl)cc4)nc4ccccc4c3=O)cc2c1 | - | MIC99 | broth dilution / visual reading | 100 µg/mL |
| Cn1c(=O)ccc2c3sc(N4CCN(c5ccccc5Cl)CC4)nc3ccc21 | MTCC 282 | MIC100 | - | 100 µg/mL |
| N#Cc1c(-c2ccc(O)cc2)cc(-c2cc3cc(F)ccc3oc2=O)nc1NS(=O)(=O)c1ccccc1 | MTCC 282 | MIC | turbidity | 50 µg/mL |
| O=c1ccc2c(ccc3nc(N4CCN(c5ccccc5)CC4)sc32)o1 | MTCC 282 | MIC100 | - | 500 µg/mL |
| COc1c(CN(C)C)cccc1C1OC(c2ccncc2)=NN1C(C)=Nc1ccc(F)cc1 | MTCC 8189 | MIC | - | 12.5 µg/mL |
| Clc1ccc(CO/N=C2/c3ccccc3OCC2n2cnnc2)cc1 | ATCC 16401 | MFC | - | >64 µg/mL |
| COc1cccc(-c2cc(-c3cc4cc(F)ccc4oc3=O)nc(NS(=O)(=O)c3ccccc3)c2C#N)c1 | MTCC 282 | MIC | turbidity | 500 µg/mL |
| Fc1ccc(CO/N=C2/c3ccccc3OCC2n2cncn2)cc1 | ATCC 16401 | MFC | - | 64 µg/mL |
| CC(=O)Nc1ccc(OCC(=O)N2N=C(c3nc4ccccc4[nH]3)CC2c2ccccc2Br)cc1 | MTCC 282 | MIC100 | - | 100 µg/mL |

Again, the opening 3 rows:

structure,strain or isolate,measure,read by,result
c1ccc(CO/N=C2/c3ccccc3OCC2n2cncn2)cc1,ATCC 16401,MFC,-,>64 µg/mL
Cc1ccc2nc(Cl)c(C3SC(=Cc4ccc(O)cc4)C(=O)N3n3c(-c4ccc(Cl)cc4)nc4ccccc4c3=O)cc2c1,-,MIC99,broth dilution / visual reading,100 µg/mL
CC1CC(C)CN(c2nc3ccc4c(ccc(=O)n4C)c3s2)C1,MTCC 282,MIC100,-,62.5 µg/mL